Assay results: article PMC9646764 (Nature Communications, 2022)

Target: TcdB4.2 (full-length recombinant toxin B variant 4.2) (Clostridioides difficile)
Assay: BLI; as a1, KD calculated with the BLItz system software from the indicated concentrations (Supplementary Fig. 7); KD called estimated
Settings: both partners purified

B1: TFPI-Fc (human IgG-Fc-tagged TFPI without the GPI anchor) (Fc fusion)
chain: [sequence of about 80 residues not given]NANRIIKTTLQ[sequence of about 60 residues not given]PNGFQVDNYGTQLNAVNNSLTPQSTKVPSLF
notes: also called human TFPI; source: Expi293F, transfected, purified from culture medium as His-tagged protein
Kd: ~227 nM
